Data as given in PubChem BioAssay AID1259414 (Drosophila RNAi Screening Center, 2018).
Assay: 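Fly genes that alter Wolbachia amount inside host cells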 (primary screen). Cells: Drosophila JW18 cells infected with Wolbachia. Reagent: long dsRNA against Drosophila genes, 0.25 µg dsRNA per well of a 384-well plate. Time to read-out: 5 days. Conditions: cells persistently infected with Wolbachia before knock-down; no added drug. Detection: 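Imaged fluorescence in situ signal for Wolbachia 23S rRNA per DAPI-counted host cell, given as a robust z-score within each plate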. Reading the numbers: Wolbachia per cell robust z: higher = more Wolbachia per host cell than the plate typical. Active means: 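Hit when robust z is 1.5 or more, or -1.5 or less, in at least two of three replicates; excludes dsRNAs with several or no targets, genes not expressed in JW18 and well A1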.
The screen tested about 24,000 reagents; below is a random part of those that have a named target and a result. Of all reagents, about 1,210 (5%) were called active. 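Inactive calls also include excluded dsRNAs with several or no targets, genes unexpressed in JW18, and well A1, regardless of score.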

CG32022 [DRSC09678] | Wolbachia per cell robust z, rep 1: 0.643; Wolbachia per cell robust z, rep 2: 0.632; Wolbachia per cell robust z, rep 3: 0.859; outcome: inactive
CG3769 [DRSC02723] | Wolbachia per cell robust z, rep 1: -0.36; Wolbachia per cell robust z, rep 2: -0.968; Wolbachia per cell robust z, rep 3: -0.264; outcome: inactive
AdoR (Adenosine receptor) [DRSC16556] | Wolbachia per cell robust z, rep 1: 0.439; Wolbachia per cell robust z, rep 2: 0.941; Wolbachia per cell robust z, rep 3: -0.486; outcome: inactive
AdoR (Adenosine receptor) [DRSC28071] | Wolbachia per cell robust z, rep 1: 0.0766; Wolbachia per cell robust z, rep 2: -1.2; Wolbachia per cell robust z, rep 3: 0.512; outcome: inactive
alc (alicorn) [DRSC07062] | Wolbachia per cell robust z, rep 1: 0.904; Wolbachia per cell robust z, rep 2: 0.251; Wolbachia per cell robust z, rep 3: -2.34; outcome: inactive
alc (alicorn) [DRSC21464] | Wolbachia per cell robust z, rep 1: -0.49; Wolbachia per cell robust z, rep 2: 0.575; Wolbachia per cell robust z, rep 3: -0.136; outcome: inactive
alc (alicorn) [DRSC23316] | Wolbachia per cell robust z, rep 1: 0.562; Wolbachia per cell robust z, rep 2: 0.0141; Wolbachia per cell robust z, rep 3: 0.109; outcome: inactive
CG5715 [DRSC15860] | Wolbachia per cell robust z, rep 1: 0.00385; Wolbachia per cell robust z, rep 2: -1.51; Wolbachia per cell robust z, rep 3: -0.145; outcome: inactive
CG5715 [DRSC26011] | Wolbachia per cell robust z, rep 1: -1.06; Wolbachia per cell robust z, rep 2: 0.507; Wolbachia per cell robust z, rep 3: -1.08; outcome: inactive
TfIIEbeta (Transcription factor IIEbeta) [DRSC08701] | Wolbachia per cell robust z, rep 1: -0.339; Wolbachia per cell robust z, rep 2: -0.183; Wolbachia per cell robust z, rep 3: -0.478; outcome: inactive
CR31292 (pseudo) [DRSC13120] | Wolbachia per cell robust z, rep 1: -0.404; Wolbachia per cell robust z, rep 2: 0.168; Wolbachia per cell robust z, rep 3: 1.39; outcome: inactive
Polr3I (RNA polymerase III subunit I) [DRSC19922] | Wolbachia per cell robust z, rep 1: 0.589; Wolbachia per cell robust z, rep 2: 0.31; Wolbachia per cell robust z, rep 3: -0.609; outcome: inactive
CG15127 [DRSC05802] | Wolbachia per cell robust z, rep 1: -0.777; Wolbachia per cell robust z, rep 2: 0.257; Wolbachia per cell robust z, rep 3: -0.0152; outcome: inactive
CG15127 [DRSC06549] | Wolbachia per cell robust z, rep 1: 0.591; Wolbachia per cell robust z, rep 2: -3.71; Wolbachia per cell robust z, rep 3: -1.63; outcome: inactive
Spag1 (Spag1 axonemal dynein assembly factor) [DRSC15331] | Wolbachia per cell robust z, rep 1: 1.13; Wolbachia per cell robust z, rep 2: -2.59; Wolbachia per cell robust z, rep 3: 1.06; outcome: inactive
mei-W68 (meiotic W68) [DRSC07649] | Wolbachia per cell robust z, rep 1: 0.799; Wolbachia per cell robust z, rep 2: 1.13; Wolbachia per cell robust z, rep 3: 0.41; outcome: inactive
olf186-M [DRSC07657] | Wolbachia per cell robust z, rep 1: -0.0091; Wolbachia per cell robust z, rep 2: -0.603; Wolbachia per cell robust z, rep 3: -0.286; outcome: inactive
noc (no ocelli) [DRSC24997] | Wolbachia per cell robust z, rep 1: 0.499; Wolbachia per cell robust z, rep 2: -1.35; Wolbachia per cell robust z, rep 3: -0.355; outcome: inactive
LeuRS (Leucyl-tRNA synthetase) [DRSC00581] | Wolbachia per cell robust z, rep 1: 0.464; Wolbachia per cell robust z, rep 2: -1.05; Wolbachia per cell robust z, rep 3: -1.71; outcome: inactive
SmydA-3 (SET and MYND domain containing, arthropod-specific, member 3) [DRSC02565] | Wolbachia per cell robust z, rep 1: -3.81; Wolbachia per cell robust z, rep 2: -1.44; Wolbachia per cell robust z, rep 3: -4.32; outcome: inactive
SmydA-3 (SET and MYND domain containing, arthropod-specific, member 3) [DRSC02566] | Wolbachia per cell robust z, rep 1: 0.798; Wolbachia per cell robust z, rep 2: 0.396; Wolbachia per cell robust z, rep 3: 1.22; outcome: inactive
SmydA-3 (SET and MYND domain containing, arthropod-specific, member 3) [DRSC30095] | Wolbachia per cell robust z, rep 1: 0.96; Wolbachia per cell robust z, rep 2: 1.56; Wolbachia per cell robust z, rep 3: 0.836; outcome: inactive
CG31200 [DRSC15285] | Wolbachia per cell robust z, rep 1: 0.000772; Wolbachia per cell robust z, rep 2: 0.349; Wolbachia per cell robust z, rep 3: 0.417; outcome: inactive
Cp7Fb (Chorion protein b at 7F) [DRSC18034] | Wolbachia per cell robust z, rep 1: 0.163; Wolbachia per cell robust z, rep 2: -0.149; Wolbachia per cell robust z, rep 3: 0.137; outcome: inactive
Arf4 (ADP ribosylation factor 4) [DRSC17195] | Wolbachia per cell robust z, rep 1: -0.118; Wolbachia per cell robust z, rep 2: 1.13; Wolbachia per cell robust z, rep 3: 0.537; outcome: inactive
Arf4 (ADP ribosylation factor 4) [DRSC29296] | Wolbachia per cell robust z, rep 1: 0.133; Wolbachia per cell robust z, rep 2: 0.379; Wolbachia per cell robust z, rep 3: 1.07; outcome: inactive
Rpn6 (Regulatory particle non-ATPase 6) [DRSC07541] | Wolbachia per cell robust z, rep 1: -0.428; Wolbachia per cell robust z, rep 2: 0.493; Wolbachia per cell robust z, rep 3: -0.295; outcome: inactive
CG15870 [DRSC06588] | Wolbachia per cell robust z, rep 1: -0.333; Wolbachia per cell robust z, rep 2: 0.417; Wolbachia per cell robust z, rep 3: 0.531; outcome: inactive
CG15870 [DRSC26344] | Wolbachia per cell robust z, rep 1: 0.887; Wolbachia per cell robust z, rep 2: -0.0758; Wolbachia per cell robust z, rep 3: 0.725; outcome: inactive
Ars2 (Arsenic resistance protein 2) [DRSC04893] | Wolbachia per cell robust z, rep 1: 1.41; Wolbachia per cell robust z, rep 2: 0.178; Wolbachia per cell robust z, rep 3: 0.886; outcome: inactive

Individual results from above.
LeuRS (Leucyl-tRNA synthetase) [DRSC00581], Wolbachia per cell robust z, rep 1 = 0.464
For “outcome”, mei-W68 (meiotic W68) [DRSC07649] has inactive
CG15870 [DRSC06588], outcome: inactive
